Reference: article PMC12291119, “In Vitro Selection of Cyclized, Glycosylated Peptide Antigens That Tightly Bind HIV High Mannose Patch Antibodies” (ACS Central Science, 2025)

Target: PGT122
Test: Biolayer interferometry (BLI) of immobilized biotinylated (glyco)peptides binding to PGT122
Details: peptide immobilized via biotin on streptavidin biosensor, 2-fold dilutions of PGT122, global 1:1 fit
Text: 9 Biolayer interferometry (BLI) measurement of glycopeptides immobilized via biotin on a streptavidin biosensor binding to PGT122 and gl-PGT121. All sensorgrams represent a series of 2-fold dilutions of antibodies with highest concentration tested labeled. All sequences followed by GSGSGK(Biotin). M denotes homopropargylglycine, modified by CuAAC as in Figure .
C. Binding Analysis of PGT Antibody-Peptide/Glycopeptide Interactions by Biolayer Interferometry
1. Biolayer Interferometry Protocol
Biotinylated glycopeptide was loaded onto a streptavidin biosensor in 250 µL buffer 1 (500 to 1000 nM […] glycopeptide in 20 mM Tris pH 7.5, 150 mM NaCl, 0.2 mg/ml BSA, 0.02% (v/v) Tween-20) for 120s in a […] of black Eppendorf tube. The sensor was then washed with 250 µL of blank buffer 1 for 120 seconds in a […] black Eppendorf tube. The sensor was washed with 250 µL buffer 3 (10 mM glycine HCl, pH 2.5) for 120 seconds in […] of black Eppendorf tube and followed by 250 µL of blank buffer 1 for 120 seconds in a […] black Eppendorf tube to immobilize glycopeptides in a range of 0.5 nm to 2 nm response. […]

“AKTRTPMNLSGKSNIRYFFTIDNSTMFEDLFMRFPRSKEYHIELEEFEDLIR [compound 9, PGT122 selection hit 2U7 (K->E variant), synthetic Man9GlcNAc2 glycopeptide]” was tested. Which Kd did it give?
Its Kd is 111 nM.
